Reference: paper PMC9320654, “Study on In Vitro Metabolism and In Vivo Pharmacokinetics of Beauvericin” (Toxins, 2022)

Amino acid sequences for entries named in this document (tags omitted).
UniProt P05177, whole entry: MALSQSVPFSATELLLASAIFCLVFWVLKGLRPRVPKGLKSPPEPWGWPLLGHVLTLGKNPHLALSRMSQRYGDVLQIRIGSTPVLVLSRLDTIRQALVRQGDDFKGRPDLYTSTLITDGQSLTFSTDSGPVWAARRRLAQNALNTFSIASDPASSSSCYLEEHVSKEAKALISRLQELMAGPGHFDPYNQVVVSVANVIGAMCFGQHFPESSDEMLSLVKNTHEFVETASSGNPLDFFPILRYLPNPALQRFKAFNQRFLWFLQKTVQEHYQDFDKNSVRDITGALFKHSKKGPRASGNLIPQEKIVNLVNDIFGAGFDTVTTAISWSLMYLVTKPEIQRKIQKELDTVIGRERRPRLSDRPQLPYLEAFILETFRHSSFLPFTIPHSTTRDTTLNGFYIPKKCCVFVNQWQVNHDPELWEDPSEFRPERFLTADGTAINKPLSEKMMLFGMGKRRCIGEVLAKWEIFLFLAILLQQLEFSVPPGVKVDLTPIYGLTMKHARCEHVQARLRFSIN

Biological target: CYP1A2 (Homo sapiens, UniProt P05177)
Experiment: CYP inhibition evaluation in human liver microsomes, CYP1A2 (phenacetin)
Conditions: CYP1A2 in HLM; positive control, final conc. 3 μM in Table S1

O=c1cc(-c2ccccc2)oc2c1ccc1ccccc12 [α-Naphthoflavone, reference compound]
Activity (% VC): 12.8 % VC
